Values from PubChem BioAssay AID624099 (ICCB-Longwood, 2012)

Purpose: 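Human genes that papillomavirus E2 requires to repress the HPV18 LCR promoter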 (primary screen)
Cells: human C33A cervical carcinoma cells (HPV-negative) stably expressing BPV1 E2 and an HPV18 LCR luciferase reporter
Reagents: siRNA pool against human genes, 40 nM
Duration: 72 h
Measurement: 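Per-well luciferase luminescence, z-scored on each plate against the plate mean and SD with control wells left out, then averaged across three replicate plates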
Direction: mean z-score and z-score: higher = stronger reporter signal, weaker E2 silencing
Call rule: 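Hit if mean z-score reaches 2 and two or more of three replicate z-scores also reach 2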
Here is one part, drawn at random, of about 21,000 reagents. 497 of them (2.4%) were called active. 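Higher z means weaker E2 silencing; only reporter increases were scored, and knock-downs that hurt cell survival may mask genuine repressor factors.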 Entries without a mark were called inactive.

| gene | mean z-score | z-score, replicate A | z-score, replicate B | z-score, replicate C |
| --- | --- | --- | --- | --- |
| VPS37A | -0.31 | -0.06 | -0.15 | -0.73 |
| LOC400675 (retired record) | 0.3 | 0.11 | 0.23 | 0.57 |
| SOHLH2 | -0.31 | -0.84 | -0.46 | 0.37 |
| CD3D | -1.43 | -1.53 | -1.4 | -1.37 |
| TCTA | 0.02 | 0.18 | 0.18 | -0.29 |
| SLAMF1 | -1.15 | -1.15 | -1.18 | -1.1 |
| ZMYND10 | 3.46 (active) | 3.92 | 3.11 | 3.35 |
| PHYHD1 | 0.36 | 0.6 | -0.04 | 0.51 |
| RSPO4 | 0.02 | 0.23 | -0.11 | -0.06 |
| LY6G5B | 0.21 | 0.38 | 0.07 | 0.18 |
| LOC339025 (retired record) | -0.23 | -0.39 | -0.21 | -0.1 |
| FASTKD1 | -0.09 | -0.41 | -0.13 | 0.27 |
| CCNF | 0.26 | 0.09 | 0.28 | 0.42 |
| GPHB5 | -0.11 | -0.21 | 0.01 | -0.14 |
| IL20RA | 0.49 | 0.23 | 0.47 | 0.77 |
| LOC391767 (retired record) | -0.41 | -0.53 | -0.56 | -0.14 |
| ABCE1 | -1.84 | -1.95 | -1.62 | -1.96 |
| MYL6B | -0.65 | -0.97 | -0.29 | -0.68 |
| BAGE3 | -1.51 | -1.79 | -1.18 | -1.55 |
| TMEM219 | -0.23 | -0.17 | -0.21 | -0.3 |
| SDHAF3 | 1.13 | 0.97 | 1.31 | 1.11 |
| INE1 | -0.12 | 0.03 | -0.21 | -0.18 |
| SMDT1 | 0.28 | 0.15 | 0 | 0.69 |
| IL36R | -0.08 | -0.18 | 0.09 | -0.16 |

Only “z-score, replicate A” (10 entries from above):
VPS37A = -0.06
LOC400675 (retired record) = 0.11
SOHLH2 = -0.84
CD3D = -1.53
TCTA = 0.18
SLAMF1 = -1.15
ZMYND10 = 3.92 (active)
PHYHD1 = 0.6
RSPO4 = 0.23
LY6G5B = 0.38

The listing continues:
| gene | mean z-score | z-score, replicate A | z-score, replicate B | z-score, replicate C |
| --- | --- | --- | --- | --- |
| SHROOM3 | 0.4 | 0.1 | 0.62 | 0.49 |
| CLGN | -0.87 | -1.39 | -0.49 | -0.73 |
| TFDP3 | -0.67 | -0.28 | -1.08 | -0.65 |
| CAPS | -0.41 | -0.8 | -0.23 | -0.22 |
| MYL6P5 | -1.49 | -1.77 | -1.31 | -1.38 |
| DNPH1 | -0.98 | -0.84 | -1.12 | -0.97 |
| EPHB6 | 0.91 | 1.06 | 1.11 | 0.57 |
| LFNG | -0.09 | -0.17 | -0.1 | -0.01 |
| CMTM1 | -0.55 | -0.59 | -0.8 | -0.28 |
| ZNF32 | 0.79 | 1.15 | 0.72 | 0.49 |
| SH2D3A | 0.41 | 0.47 | 0.5 | 0.26 |
| FUNDC2 | 0.95 | 0.93 | 0.98 | – |
| LOC401234 (retired record) | -0.16 | -0.18 | -0.35 | 0.04 |
| NIF3L1 | -0.99 | -1.45 | -0.84 | -0.69 |
| MUTYH | 0.43 | 0.32 | 0.49 | 0.49 |
| ZNF787 | 0.63 | 0.51 | 0.49 | 0.89 |
| DUS1L | 1.6 | 1.66 | 1.64 | 1.52 |
| RIPK3 | -1.92 | -1.93 | -1.76 | -2.08 |
| REM1 | -0.41 | -0.4 | -0.81 | -0.02 |
| ITGB5 | 0.23 | 0 | 0.21 | 0.49 |
| HOXB13 | 0.39 | 0.43 | 0.38 | 0.36 |
| ADAM29 | 1.77 | 1.42 | 2.02 | 1.87 |
| NEK2 | 0.77 | 0.45 | 0.99 | 0.89 |
| SREK1IP1 | -0.89 | -0.66 | -1.25 | -0.77 |
| RABEPK | 0.56 | 0.44 | 0.71 | 0.53 |
| LOC389767 (retired record) | -0.26 | -0.38 | 0.09 | -0.5 |
| ITGB2 | 1.31 | 1.25 | 1.42 | 1.25 |
| LRIG1 | -1.05 | -1.06 | -1.32 | -0.76 |
| CLEC18C | -0.49 | – | -0.43 | -0.54 |
| UGGT2 | 0.3 | 0.58 | 0.19 | 0.14 |
| LOC389710 (retired record) | -1.02 | -0.74 | -1.5 | -0.81 |
| CFP | -0.32 | -0.04 | -0.35 | -0.58 |
| PAGE4 | -0.47 | -0.56 | -0.5 | -0.34 |
